Measured values from several laboratories, pooled; numbers as filed in NIAID ChemDB.

Shared fields: growth or infection tests; organism: HIV-1; cell line: MT-2; endpoint: fold resistance

Neighbouring rows are from separate reports. An empty or dashed field is not shown. Fold resistance has wild type as its base.

| SMILES | strain or isolate | mutations | method | setting | value |
|---|---|---|---|---|---|
| Cc1cn([C@H]2C[C@H](N=[N+]=[N-])[C@@H](CO)O2)c(=O)[nH]c1=O | - | RT-Q151M A62V | cytopathic effect / MTT | - | >20 |
| Cc1cn([C@H]2C[C@H](N=[N+]=[N-])[C@@H](CO)O2)c(=O)[nH]c1=O | IIIB | K112M K113E V128I M200I H219P I401T R409K D437N L441P R41K | p24 / ELISA | - | 0.5 |
| Nc1nc(=O)n([C@@H]2CO[C@H](CO)S2)cc1F | HXB2D (RT-K65R) | RT-K65R | RT activity | - | 11.36 |
| Nc1nc2c(ncn2[C@H]2CO[C@@H](CO)O2)c(=O)[nH]1 | - | RT-M184V | - | - | 4.17 |
| Nc1nc2c(ncn2[C@H]2CO[C@@H](CO)O2)c(=O)[nH]1 | - | RT-Q151M | cytopathic effect / MTT | - | 9.6 |
| Nc1ncnc2c1ncn2[C@@H]1O[C@H](CO)C[C@@H]1F | P119S(RT-P119S) | RT-P119S | p24 | - | 4.6 |
| Cc1ccc(S(=O)(=O)N(CC(C)C)C[C@@H](O)[C@H](Cc2ccccc2)NC(=O)O[C@H]2CO[C@H]3OCC[C@H]32)cc1 | IIIB | 8374-P47 GS-8374-resistant | ATP | - | 5.1 |
| Nc1nc2c(ncn2[C@H]2CO[C@@H](CO)O2)c(=O)[nH]1 | LAI | RT-D67N K70R T215Y K219Q | p24 | - | 2.1 |
| CC(C)CN(C[C@@H](O)[C@H](Cc1ccccc1)NC(=O)O[C@H]1CCOC1)S(=O)(=O)c1ccc(N)cc1 | IIIB | L441P | p24 / ELISA | - | 0.8 |
| Nc1nc(=O)n([C@H]2CS[C@@H](CO)O2)cc1F | HXB2 | T66I | recombinant virus assay / single cycle | pseudotyped | 0.8 |
| Cc1cn([C@H]2C[C@H](N=[N+]=[N-])[C@@H](CO)O2)c(=O)[nH]c1=O | LAI | RT-K65R | p24 | - | 3.3 |
| Nc1ncnc2c1ncn2CCOCP(=O)(O)O | RT A62V/V75I/F77L/F116Y/Q151M | RT-A62V V75I F77L F116Y Q151M | p24 | - | 1 |
| Nc1ccn([C@H]2CC[C@@H](CO)O2)c(=O)n1 | - | RT-T69G | p24 | - | 7.4 |
| Nc1ccn([C@H]2CC[C@@H](CO)O2)c(=O)n1 | K65R(RT-K65R) | RT-K65R | p24 | - | 4.3 |
| O=c1[nH]cnc2c1ncn2[C@H]1CC[C@@H](CO)O1 | LAI | RT-K65R | p24 | - | 3.1 |
| O=C(O)P(=O)(O)O | HXB2 | TAM1 (M41L D67N L210W T215Y) | - | - | 0.5 |
| Cc1cn([C@H]2C[C@H](N=[N+]=[N-])[C@@H](CO)O2)c(=O)[nH]c1=O | NL4-3 | RT-A360T | p24 | - | 1.17 |
| Nc1nc(=O)n([C@@H]2CS[C@H](CO)O2)cc1F | Site-directed mutant | RT-K65R Y115F M184V | cytopathic effect / XTT | - | >210 |
| O=c1[nH]cnc2c1ncn2[C@H]1CC[C@@H](CO)O1 | RT P119S V179D L214F | RT-P119S V179D L214F | p24 | - | 1.1 |
| O=c1[nH]cnc2c1ncn2[C@H]1CC[C@@H](CO)O1 | - | RT-delta67 T69G | p24 | - | 0.9 |
| CC(C)OC(=O)OCOP(=O)(CO[C@H](C)Cn1cnc2c(N)ncnc21)OCOC(=O)OC(C)C | M184V (3TC-resistant RT M184V) | RT-M184V | p24 | - | 1.18 |
| C[C@H](Cn1cnc2c(N)ncnc21)OCP(=O)(O)O | Site-directed mutant | RT-K65R Y115F M184V | cytopathic effect / XTT | - | 4.5 |
| CC(C)CN(C[C@@H](O)[C@H](Cc1ccccc1)NC(=O)[C@H](CC(N)=O)NC(=O)c1ccc2ccccc2n1)C(=O)NC(C)(C)C | RF | PR-G48V A71T V82A | - | - | 25.2 |

2 of the rows above, restated:

{"SMILES": "Nc1ncnc2c1ncn2CCOCP(=O)(O)O", "strain or isolate": "RT A62V/V75I/F77L/F116Y/Q151M", "mutations": "RT-A62V V75I F77L F116Y Q151M", "method": "p24", "value": "1"}
{"SMILES": "O=c1[nH]cnc2c1ncn2[C@H]1CC[C@@H](CO)O1", "strain or isolate": "RT P119S V179D L214F", "mutations": "RT-P119S V179D L214F", "method": "p24", "value": "1.1"}